Assay results: ChEMBL document CHEMBL1250431, “Morphinans and isoquinolines: acetylcholinesterase inhibition, pharmacophore modeling, and interaction with opioid receptors” (Bioorg Med Chem, 2010)

Sequences of proteins named here, by UniProt entry; tags and fusion partners are left off.
UniProt P41144, whole entry: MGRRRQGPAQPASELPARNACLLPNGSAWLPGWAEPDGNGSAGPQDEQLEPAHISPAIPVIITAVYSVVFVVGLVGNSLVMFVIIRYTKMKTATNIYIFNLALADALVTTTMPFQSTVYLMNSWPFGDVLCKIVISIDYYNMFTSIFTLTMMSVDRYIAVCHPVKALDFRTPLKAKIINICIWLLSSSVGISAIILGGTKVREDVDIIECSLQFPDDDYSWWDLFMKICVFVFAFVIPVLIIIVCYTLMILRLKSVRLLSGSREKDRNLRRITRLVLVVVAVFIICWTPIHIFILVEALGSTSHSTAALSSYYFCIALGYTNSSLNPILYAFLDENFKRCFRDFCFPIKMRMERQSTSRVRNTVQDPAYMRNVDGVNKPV

Biological target: Kappa-type opioid receptor (Cavia porcellus, UniProt P41144)
Assay: Displacement of [3H]U69593 from kappa opioid receptor in guinea pig brain membrane
Type: cell membranes

**Q.** Which Ki does the source give for `CO[C@@]12CCC(=O)[C@@H]3Oc4c(O)ccc5c4[C@@]31CCN(C)[C@@H]2C5` here?
**A.** 2660 nM
